Compound potency records, mixed from different reports. Data source: NIAID ChemDB in PubChem.

Common to all: toxicity to cultured cells; cell line: HepG2; endpoint: CC50

An empty or dashed field is not shown. CCn is the concentration with n% toxicity to the cells. Neighbouring rows are from separate reports. Two numbers with a dash give a range or band.

SMILES	read by	value
COc1ccc2c3conc3c(=O)n(CCCN3C[C@@H]4CN(c5ccc6c(n5)NC(=O)CO6)C(=O)O[C@H]4C3)c2c1	luminescence	10–100 µg/mL
Cc1ccc(-c2cc3nc(NC(C)C)[nH]c(=O)c3s2)cc1	MTT	49.4 µM
CC[C@H]1OC(=O)[C@H](C)[C@@H](O[C@H]2C[C@@](C)(OC)[C@@H](O)[C@H](C)O2)[C@H](C)[C@@H](O[C@@H]2O[C@H](C)C[C@H](N(C)C)[C@H]2OCCCNC(=O)CCCNc2ccnc3ccccc23)[C@](C)(O)C[C@@H](C)CN(C)[C@H](C)[C@@H](O)[C@]1(C)O	MTS	>100 µM
Cc1cc(NC(=O)c2c(C)c(C(=O)C(=O)NC3(C)CCC(O)CC3)n(C)c2-c2ccsc2)ccc1F	MTT	>30 µM
CC[C@H]1OC(=O)[C@H](C)[C@@H](O[C@H]2C[C@@](C)(OC)[C@@H](O)[C@H](C)O2)[C@H](C)[C@@H](O[C@@H]2O[C@H](C)C[C@H](N(C)C)[C@H]2OCCCN(C)Cc2cnc3ccccc3c2)[C@](C)(O)C[C@@H](C)CN(C)[C@H](C)[C@@H](O)[C@]1(C)O	MTS	47 µM
Cc1ccc(-c2cc3nc(NC(C)C)[nH]c(=O)c3s2)cc1.O=C(O)/C=C/C(=O)O	MTT	26.9 µM
Cc1cc(Oc2ccc(-c3nc(N)nc(N)n3)cc2)cc(C)c1Cl	sulforhodamine / absorbance	>234 µM
CN=C(N)c1ccc(N2CCN(c3ccc(C(N)=NC)cc3)CC2)cc1		361 µM
COc1ccc(Oc2ccc(-c3nc(N)nc(N)n3)cc2)cc1	sulforhodamine / absorbance	>259 µM
Cc1cc(NC(=O)c2c(C)c(C(=O)C(=O)NC3(C)CC(OP(=O)([O-])[O-])C3)n(C)c2C)ccc1F.[Na+].[Na+]	MTT	>30 µM
CC(C)CCN=C(N)c1ccc(N2CCN(c3ccc(C(N)=NCCC(C)C)cc3)CC2)cc1		>0.9 µg/mL
CC[C@H]1OC(=O)[C@H](C)[C@@H](O[C@H]2C[C@@](C)(OC)[C@@H](O)[C@H](C)O2)[C@H](C)[C@@H](O[C@@H]2O[C@H](C)C[C@H](N(C)C)[C@H]2OCCCNC(=O)CNc2ccnc3cc(Cl)ccc23)[C@](C)(O)C[C@@H](C)CN(C)[C@H](C)[C@@H](O)[C@]1(C)O	MTS	28 µM
C[C@H](NC(=O)[C@@H](O)c1cc(F)cc(F)c1)C(=O)N[C@@H]1C(=O)N(C)c2ccccc2-c2ccccc21		>10 µM
Cc1cc(C=O)cc(C)c1Oc1cc(Nc2ccc(C#N)cc2)nc2ccccc12	MTT	65.9 µM
C[C@H](NC(=O)[C@@H](O)C1CCCCC1)C(=O)N[C@@H]1C(=O)N(C)c2ccccc2-c2ccccc21		>10 µM
Cc1cc(NC(=O)c2c(C)c(C(=O)C(=O)NCC(C)(C)O)n(C)c2-c2ccsc2)ccc1F	MTT	5–30 µM
NC(=NC1CCCCCC1)c1ccc(N2CCN(c3ccc(C(N)=NC4CCCCCC4)cc3)CC2)cc1		>0.69 µg/mL
COc1ccc2c3conc3c(=O)n(CCN3C[C@@H]4CN(c5ccc6c(n5)NC(=O)CO6)C(=O)O[C@H]4C3)c2n1	luminescence	1–10 µg/mL
Cc1cc(NC(=O)c2c(C)c(C(=O)C(=O)Nc3cccnc3N3CCOCC3)n(C)c2C)ccc1F	MTT	>30 µM
COc1ccc(-c2nc3c(N)nc(N)nc3nc2C(C)C)cc1	resazurin / fluorescence	>50 µM
CC[C@H]1OC(=O)[C@H](C)[C@@H](O)[C@H](C)[C@@H](O[C@@H]2O[C@H](C)C[C@H](N(C)C)[C@H]2OCCCNCc2ccnc3ccccc23)[C@](C)(O)C[C@@H](C)CN(C)[C@H](C)[C@@H](O)[C@]1(C)O	MTS	>100 µM
Nc1nc(N)nc(-c2ccc(Oc3ccc(F)cc3)cc2)n1	sulforhodamine / absorbance	>269 µM
NC(=Nc1ccccc1)c1ccc(N2CCN(c3ccc(C(N)=Nc4ccccc4)cc3)CC2)cc1		>11.6 µg/mL
Cc1cc(NC(=O)c2c(C)c(C(=O)C(=O)NC3(C)CC(O)C3)n(C)c2C2CC2)ccc1F	MTT	>30 µM
CC1(C)N=C(N)N=C(N)N1OCCCOc1cc(Cl)c(Cl)cc1Cl	resazurin / fluorescence	40 µM
CCCCCCCCN=C(N)c1ccc(N2CCN(c3ccc(C(N)=NCCCCCCCC)cc3)CC2)cc1		2.23 µg/mL
COC(=O)c1cc(NC(=O)c2c(C)c(C(=O)C(=O)NC(C)(C)C)n(C)c2C)ccc1F	MTT	>30 µM
Nc1ccn([C@H]2CC[C@@H](CO)O2)c(=O)n1		>25 µM
Nc1nc(N)nc(-c2ccc(Oc3ccc(Cl)cc3Cl)cc2)n1	sulforhodamine / absorbance	>230 µM
CC[C@H]1OC(=O)[C@H](C)[C@@H](O)[C@H](C)[C@@H](O[C@@H]2O[C@H](C)C[C@H](N(C)C)[C@H]2OCCCNc2ccnc3cc(Cl)ccc23)[C@](C)(O)C[C@@H](C)CN(C)[C@H](C)[C@@H](O)[C@]1(C)O	MTS	83 µM
NC(=NC1CC1)c1ccc(N2CCN(c3ccc(C(N)=NC4CC4)cc3)CC2)cc1		>543 µM
Nc1nc(N)nc(-c2ccc(Oc3ccc(Br)cc3)cc2)n1	sulforhodamine / absorbance	>223 µM
CC[C@H]1OC(=O)[C@H](C)[C@@H](O[C@H]2C[C@@](C)(OC)[C@@H](O)[C@H](C)O2)[C@H](C)[C@@H](O[C@@H]2O[C@H](C)C[C@H](N(C)C)[C@H]2OCCCNCc2ccnc3ccccc23)[C@](C)(O)C[C@@H](C)CN(C)[C@H](C)[C@@H](O)[C@]1(C)O	MTS	45 µM